Measured values as given in patent US20040265803A1, “Genes and their genetic products pertinent to microsatellite instable (msi+) tumours” (priority 2000, published 2004).

Biological target: […] peptide derived from a matrix protein of the influenzavirus, presented on cells of the HLA (influenzavirus)

T cells from an HLA-A0201-positive healthy proband tested against the […] peptide (cells without a defined receptor)
IFN-gamma ELISpot, specific cells/1,000,000 cells (specific cells/1,000,000): 1170
